Measured values from several laboratories, pooled; numbers as filed in NIAID ChemDB.

Shared fields: growth or infection tests; organism: HIV-1; endpoint: EC50

a–b is a range or a potency band.

SMILES | strain | changes | cells | read by | setting | value
CN(C(=O)[C@H](Cc1cc(F)cc(F)c1)NC(=O)c1cncc(C(=O)N[C@@H](Cc2cc(F)cc(F)c2)C(=O)N(C)c2ccc3scnc3c2)c1)c1ccc2scnc2c1 | NL4-3 | - | MT-2 | luciferase | - | 0.01 µM
Nc1nc2c(ncn2[C@H]2CO[C@@H](CO)C2)c(=O)[nH]1 | IIIB | - | ATH8 | cytopathic effect | - | 30 µM
Cc1c(OCC2CCC2)c2cc(F)ccc2[nH]c1=O | NNRTI-resistant (RT K103N G190A) | RT-K103N G190A | HeLa + HeLa-MAGI | β-galactosidase | - | >2 µM
CN(C(=O)[C@H](Cc1ccccc1)NC(=O)NS(=O)(=O)N[C@@H](Cc1ccccc1)C(=O)N(C)c1ccc(C(C)(C)C)cc1)c1ccc(C(C)(C)C)cc1 | NL4-3 | - | MT-2 | luciferase | - | 0.27 µM
Cc1cc(S(N)(=O)=O)ccc1NC(=O)COc1ccc(Cl)cc1C(=O)c1cc(C#N)cc(C#N)c1 | HXB2 | RT-Y181C | HeLa + HELA CD4+ | β-galactosidase | - | <0.01 µM
CC(=O)N[C@@H](CSC(C)=O)C(=O)NCCSC(C)=O | BaL | - | MDM | RT activity | - | <150 µM
O=c1[nH]c(SCc2cn[nH]n2)nc(-c2ccc(Cl)cc2)c1Cl | ADA5 | - | - | - | - | 0.32 µg/mL
C[C@@H]1CN(C(=O)c2ccccc2)CCN1C(=O)C(=O)c1c[nH]c2c(NC(=O)NCCCCNC(=O)Nc3ccc(B(O)O)cc3)cccc12 | - | - | HeLa | luciferase / reporter gene | - | <1 µM
C=CCN1CCN(CC(=C)C)c2c(sc3ccc(OC)cc23)C1=O | - | - | OM-10.1 | p24 | - | 0.8 µM
C=CCN(C(=O)[C@H](Cc1cc(F)cc(F)c1)NC(=O)c1ccc(F)c(C(=O)N[C@@H](Cc2cc(F)cc(F)c2)C(=O)N(CC=C)c2ccc(OC)cc2)c1)c1ccc(OC)cc1 | NL4-3 | - | MT-2 | luciferase | - | 0.04 µM
CSc1ncnc2c1ncn2[C@H]1CO[C@@H](CO)C1 | IIIB | - | ATH8 | cytopathic effect | - | >100 µM
O=C1NCCN(Cc2ccccc2F)c2c1oc1ccc(Br)cc21 | - | - | OM-10.1 | p24 | - | <0.002 µM
COc1ccc(N(C)C(=O)[C@H](Cc2ccccc2)NC(=O)COc2nc3ccccc3n(CC(=O)N[C@@H](Cc3ccccc3)C(=O)N(C)c3ccc(OC)cc3)c2=O)cc1 | NL4-3 | - | MT-2 | luciferase | - | 0.21 µM
Nc1ncnc2c1ncn2[C@H]1CC[C@@H](CO)O1 | IIIB | - | ATH8 | cytopathic effect | - | 7.5 µM
CC(=O)N[C@@H](CSC(=O)C(C)C)C(=O)NCCSC(C)=O | BaL | - | MDM | RT activity | - | ~150 µM
C=C(C)[C@@H]1CC[C@]2(C(=O)NCCCCCCCC(=O)N[C@@H](CC(C)C)[C@@H](O)CC(=O)O)CC[C@]3(C)[C@H](CC[C@@H]4[C@@]5(C)CC[C@H](O)C(C)(C)[C@@H]5CC[C@]43C)[C@@H]12 | LAI | GP41-K90R | HeLa P4 + HeLa | syncytia | - | <10 µM
C[C@@H]1CN(C(=O)c2ccccc2)CCN1C(=O)C(=O)c1c[nH]c2c(N3CCN(CCCl)C3=O)cccc12 | - | - | HeLa | luciferase / reporter gene | - | <1 µM
Nc1ncnc2c1ncn2C1OC(COP(=O)(O)OC2C(O)C(COP(=O)(O)OC3C(O)C(CO)OC3n3cnc4c(N)ncnc43)OC2n2cnc3c(N)ncnc32)C(F)C1N | - | - | SupT1 + Sup-T1 | syncytia | - | <300 µM
O=c1[nH]c(SCc2cn[nH]n2)nc(-c2cccc([N+](=O)[O-])c2)c1Cl | IIIB | - | - | - | - | 1.02 µg/mL
CCCc1c(OC2CCCCC2)c2cc(Cl)ccc2[nH]c1=O | NNRTI-resistant (RT K103N V108I) | RT-K103N V108I | HeLa + HeLa-MAGI | β-galactosidase | - | >2 µM
CC(=O)N[C@@H](CSC(=O)C(C)(C)C)C(=O)NCCSC(=O)C(C)(C)C | BaL | - | MDM | RT activity | - | <150 µM
CCOC(=O)c1ccccc1NC(=O)Nc1cccc2c(C(=O)C(=O)N3CCC(=C(C#N)c4ccccc4)CC3)c[nH]c12 | - | - | HeLa | luciferase / reporter gene | - | <1 µM
C[C@H]1CO[C@@H]2Cn3cc(C(=O)NCc4ccc(F)cc4F)c(=O)c(O)c3C(=O)N12 | NL4-3 | E138K/R263K | CBMC | RT activity | - | 0.0012 µM
N#CC1C=Cc2c(ccc3ccccc23)N1C(=O)c1ccco1 | IIIB | - | MOLT-3 | syncytia | - | 44.1 µM
Cc1cc(N2CCS(=O)CC2)ccc1NC(=O)COc1ccc(Cl)cc1C(=O)c1cccs1 | WTRVA | - | HeLa + HELA CD4+ | β-galactosidase | - | 0.011–0.1 µM
Nc1ccn([C@H]2S[C@@H](CO)C=C2F)c(=O)n1 | BRU | - | PBMC | PCR | - | <5.2 µM
CCOC(=O)CCCNC(=O)Nc1cccc2c(C(=O)C(=O)N3CCC(=C(C#N)c4ccccc4)CC3)c[nH]c12 | - | - | HeLa | luciferase / reporter gene | - | <1 µM
Nc1ncc2ncn([C@H]3CO[C@@H](CO)C3)c2n1 | IIIB | - | ATH8 | cytopathic effect | - | >100 µM
CC(=O)N[C@@H](CSC(=O)C(C)C)C(=O)NCCSC(=O)C(C)(C)C | BaL | - | MDM | RT activity | - | <150 µM
Nc1nc(N)c2ncn([C@H]3CO[C@@H](CO)C3)c2n1 | IIIB | - | ATH8 | cytopathic effect | - | >100 µM
COc1ccc2c(c1)C1=C(CC2)C(=O)N[C@@H]2CCCC[C@@H]2N1 | - | - | OM-10.1 | p24 | - | 1 µM
C[C@@H]1CN(C(=O)c2ccccc2)CCN1C(=O)C(=O)c1c[nH]c2c(NC(=O)C[N+](C)(C)C)cccc12 | - | - | HeLa | luciferase / reporter gene | - | <1 µM
CCCOC(=O)N1c2ccc3ccccc3c2C=CC1C#N | IIIB | RT-P236L | MOLT-3 | syncytia | - | 6.8 µM
O=C(Nc1ncnc2c1ncn2[C@@H]1O[C@H](CO)[C@@H](OC(=O)c2ccccc2)[C@H]1OC(=O)c1ccccc1)c1ccccc1 | NL4-3 | - | HeLaP4 | β-galactosidase | - | 1–2 µM
COc1cc2c(cc1Cc1cccc(Cl)c1F)c(=O)c(C(=O)O)cn2[C@H](CO)C(C)C | NL4-3 | Wild type | PM1 | RT activity | - | 0.0012 µM
Cc1cc(C#N)cc(C(=O)c2cc(Cl)ccc2OCC(=O)Nc2ccc(OCCCN3CC=CC3)cc2C)c1 | HXB2 | RT-P236L | HeLa + HELA CD4+ | β-galactosidase | - | <0.01 µM
C=CCN(CC=C)C(=S)N=Nc1c(O)n(CC=C)c2ccccc12 | - | - | H9/HIV-1 + H9 | plaque count | chronic infection | 2 µg/mL
CC(=O)N[C@@H](CSC(=O)C(C)(C)C)C(=O)NCCSC(=O)C(C)C | BaL | - | MDM | RT activity | - | <150 µM
Cc1cc(S(N)(=O)=O)ccc1NC(=O)COc1ccc(Cl)cc1C(=O)c1cc(F)cc(F)c1 | HXB2 | RT-V108I Y181C | HeLa + HELA CD4+ | β-galactosidase | - | <0.01 µM
C[C@@H]1CN(C(=O)c2ccccc2)CCN1C(=O)C(=O)c1c[nH]c2c(NC(=O)NCCCCCCCCNC(=O)Nc3cccc(B(O)O)c3)cccc12 | - | - | HeLa | luciferase / reporter gene | - | <1 µM
Cc1cc(S(N)(=O)=O)ccc1NC(=O)COc1ccc(Cl)cc1C(=O)c1cccc(C#N)c1 | HXB2 | RT-L100I | HeLa + HELA CD4+ | β-galactosidase | - | <0.01 µM
COc1ccc(N(C)C(=O)[C@H](Cc2ccccc2)NC(=O)NC(=O)N[C@@H](Cc2ccccc2)C(=O)N(C)c2ccc(OC)cc2)cc1 | NL4-3 | - | MT-2 | luciferase | - | 4.71 µM
Cc1cc(S(N)(=O)=O)ccc1NC(=O)COc1ccc(Cl)cc1C(=O)c1cc(Cl)cc(Cl)c1 | HXB2 (RT-K103N Y181C) Recombinant | RT-K103N Y181C | HeLa + HELA CD4+ | β-galactosidase | - | <0.01 µM
COc1ccc2c(c1)C1=C(CC2)C(=O)NCCN1CCC(C)C | - | - | OM-10.1 | p24 | - | 1.8 µM
Cc1cc(C)cc(C(=O)c2cc(Cl)ccc2OCC(=O)Nc2ccc(S(N)(=O)=O)cc2C)c1 | HXB2 | RT-P236L | HeLa + HELA CD4+ | β-galactosidase | - | <0.01 µM
CC(=O)N[C@@H](CSC(=O)C(C)(C)C)C(=O)NCCSC(=O)c1ccccc1 | BaL | - | MDM | RT activity | - | >150 µM

For reference, 3 entries again:

SMILES,strain,changes,cells,read by,setting,value
CC(=O)N[C@@H](CSC(=O)C(C)C)C(=O)NCCSC(C)=O,BaL,-,MDM,RT activity,-,~150 µM
CC(=O)N[C@@H](CSC(=O)C(C)C)C(=O)NCCSC(=O)C(C)(C)C,BaL,-,MDM,RT activity,-,<150 µM
CN(C(=O)[C@H](Cc1cc(F)cc(F)c1)NC(=O)c1cncc(C(=O)N[C@@H](Cc2cc(F)cc(F)c2)C(=O)N(C)c2ccc3scnc3c2)c1)c1ccc2scnc2c1,NL4-3,-,MT-2,luciferase,-,0.01 µM

Lines come from different laboratories, so protocols vary. ECn is the concentration giving n% inhibition of infection, replication or growth. Blank or dashed fields: not listed here.